Results of unrelated studies side by side (data: NIAID ChemDB).

a–b is a range or a potency band. Blank or dashed fields: not listed here. ECn: concentration that inhibits the pathogen or its effect by n%. MIC50, MIC90 and the like: level of inhibition, or share of isolates inhibited. Rows are shuffled and stem from different studies. Percent inhibition refers to the dose given; in toxicity tests it is the harm to the cells. ICn is the concentration giving n% inhibition.

| SMILES | test | organism | strain | cell line | target | method | measure | dose | result |
|---|---|---|---|---|---|---|---|---|---|
| Cc1cc(CCCOc2c(C)cc(-c3noc(C(F)(F)F)n3)cc2C)on1 | culture | Rhinovirus | Isolate 26 | OHIO HELA-I | - | cytopathic effect / visual reading | EC50 | - | 0.1 µg/mL |
| C=CCc1ccc(O)c(OC)c1 | culture | Candida tropicalis | 341 | - | - | turbidity | MIC90 | - | 495 µg/mL |
| Oc1ccccc1N=Cc1ccc(F)cc1 | culture | Cryptococcus gattii | L 27/01 | - | - | - | MIC99 | - | 64 µg/mL |
| Nc1nc(N)c2nc(CC3CCCCC3)c(CC3CCCCC3)nc2n1 | target | Cryptosporidium parvum | TYPE 1 | - | Dihydrofolate reductase | - | IC50 | - | >10 µM |
| CCOc1ccccc1-c1cncc(N2CCN(c3ccc(C(C)=O)cc3)CC2)n1 | target | Cytomegalovirus | - | - | UL97 kinase | - | IC50 | - | <100 µM |
| CCO/N=C/c1ccc(OCCC2CCN(c3ccc(Cl)nn3)CC2)cc1 | culture | Rhinovirus | 11757 (ICAM-1 receptor group 16) | KB | - | neutral red | EC50 | - | 0.008 µM |
| COc1cccc(N2CCN(c3cncc(-c4csc5ccccc45)n3)CC2)c1 | target | Cytomegalovirus | - | - | UL97 kinase | - | IC50 | - | <10 µM |
| Cc1ccc(S(=O)(=O)Nc2cc(-c3ccccc3)sc2C(=O)O)c([N+](=O)[O-])c1 | target | Hepatitis C virus | - | - | NS3 ATPase | - | IC50 | - | 5–20 µM |
| O=C(Nc1ccc(S(=O)(=O)[O-])c2cccc(S(=O)(=O)[O-])c12)c1ccccc1 | culture | Adenovirus | TYPE 3 | Human embryonic lung cells | - | cytopathic effect | inhibition | 10 µg/mL | 0% |
| Cc1ccc(N2CCN(c3cncc(-c4ccc(C(F)(F)F)cc4)n3)CC2)cc1 | target | Cytomegalovirus | - | - | UL97 kinase | - | IC50 | - | <10 µM |
| COc1ccc2ccc3nc(N)nc(N)c3c2c1 | target | Cryptosporidium parvum | TYPE 2 | - | Dihydrofolate reductase | - | IC50 | - | 1.2 µM |
| CC(=O)N(Cc1ccc(Cl)cc1)c1cc(-c2ccccc2)sc1C(=O)O | target | Hepatitis C virus | - | - | NS3 ATPase | - | IC50 | - | 5–20 µM |
| O=S(=O)(O)c1cccc2c(O)cccc12 | culture | Herpes simplex virus | - | Human amnion AV3 cells | - | cytopathic effect | inhibition | 50 µg/mL | 10% |
| Cc1c(Cc2ccc(Cl)c(Cl)c2)sc2nc(N)nc(N)c12 | target | Cryptosporidium parvum | TYPE 1 | - | Dihydrofolate reductase | - | IC50 | - | >10 µM |
| CC(=O)N[C@H]1[C@H]([C@H](O)[C@H](O)CO)OC(C(=O)O)=C[C@@H]1N=C(N)N | culture | Influenza A virus | H1N1 A/Beijing/262/95 | MDCK | - | visual reading | EC50 | - | 1.5 µM |
| O=[N+]([O-])c1ccc(C=Nc2ccccc2O)cc1 | culture | Cryptococcus neoformans | WP | - | - | - | MIC99 | - | 11.3 µg/mL |
| Nc1cccc(S(=O)(=O)O)c1 | culture | Adenovirus | TYPE 3 | Human embryonic lung cells | - | cytopathic effect | inhibition | 50 µg/mL | 0% |
| COc1cc(CNc2ccc3nc(N)nc(N)c3c2Cl)cc(OC)c1OC | target | Cryptosporidium parvum | TYPE 2 | - | Dihydrofolate reductase | - | IC50 | - | 0.027 µM |
| COCC(=O)N(Cc1ccccc1)c1cc(-c2ccccc2)sc1C(=O)O | target | Hepatitis C virus | - | - | NS3 ATPase | - | IC50 | - | <5 µM |
| Nc1nc(N)c2c(n1)CCc1ccc(Cl)cc1-2 | target | Cryptosporidium parvum | TYPE 2 | - | Dihydrofolate reductase | - | IC50 | - | >10 µM |
| O=S(=O)([O-])c1ccc2c(S(=O)(=O)[O-])cc(S(=O)(=O)[O-])cc2c1 | culture | Adenovirus | TYPE 3 | Human amnion AV3 cells | - | cytopathic effect | inhibition | 10 µg/mL | 0% |
| CN(Cc1ccc2nc(N)nc(N)c2n1)c1ccc(C(=O)NC(CO)CCO)cc1 | target | Cryptosporidium parvum | TYPE 2 | - | Dihydrofolate reductase | - | IC50 | - | 2.4 µM |
| O=S(=O)(O)c1ccc(N=Nc2c(O)ccc3cc(S(=O)(=O)O)ccc23)cc1 | culture | Adenovirus | TYPE 3 | Human embryonic lung cells | - | cytopathic effect | inhibition | 10 µg/mL | 0% |
| Nc1nc(N)c2c(n1)Cc1ccc(Cl)cc1-2 | target | Cryptosporidium parvum | TYPE 1 | - | Dihydrofolate reductase | - | IC50 | - | >10 µM |
| Fc1ccc(N2CCCCC2)c(NC(=S)c2ccncc2)c1 | host protein | - | - | - | CK1a | kinase activity | inhibition | 10 µM | -3.5% |
| CC(C)=CCN1Cc2cccc3[nH]c(=S)n(c23)C[C@@H]1C | host protein | Human | - | - | DNA polymerase alpha | - | IC50 | - | >175 µM |
| CCOc1ccc(-c2cncc(N3CCN(c4ccc(F)cc4F)CC3)n2)cc1 | target | Cytomegalovirus | - | - | UL97 kinase | - | inhibition | 10 µM | >15% |
| O=C(O)c1sc(-c2ccc(F)cc2)cc1NS(=O)(=O)c1ccccc1 | target | Hepatitis C virus | - | - | NS3 ATPase | - | IC50 | - | <5 µM |
| COc1ccc(N2CCN(c3cncc(-c4ccc5ccccc5c4)n3)CC2)cc1OC | target | Cytomegalovirus | - | - | UL97 kinase | - | IC50 | - | <1 µM |
| CCC(=O)N(Cc1cccc(Cl)c1)c1cc(-c2ccccc2)sc1C(=O)O | target | Hepatitis C virus | - | - | NS3 ATPase | - | IC50 | - | 5–20 µM |
| O=C1C(c2[nH]c3ccc(S(=O)(=O)O)cc3c2O)=Nc2ccc(S(=O)(=O)O)cc21 | culture | Herpes simplex virus | - | Human amnion AV3 cells | - | cytopathic effect | inhibition | 10 µg/mL | 0% |
| CCOC(=O)c1c(C)nc(NCCCCNc2ccnc3cc(Cl)ccc23)nc1-c1ccccc1 | culture | Cryptococcus gattii | LMM 818 | - | - | - | MIC99 | - | 11.3 µg/mL |

A second listing of 5 rows from above:

CCC(=O)N(Cc1cccc(Cl)c1)c1cc(-c2ccccc2)sc1C(=O)O ; test: target ; organism: Hepatitis C virus ; target: NS3 ATPase ; measure: IC50 ; result: 5–20 µM
Nc1nc(N)c2c(n1)Cc1ccc(Cl)cc1-2 ; test: target ; organism: Cryptosporidium parvum ; strain: TYPE 1 ; target: Dihydrofolate reductase ; measure: IC50 ; result: >10 µM
CN(Cc1ccc2nc(N)nc(N)c2n1)c1ccc(C(=O)NC(CO)CCO)cc1 ; test: target ; organism: Cryptosporidium parvum ; strain: TYPE 2 ; target: Dihydrofolate reductase ; measure: IC50 ; result: 2.4 µM
Nc1cccc(S(=O)(=O)O)c1 ; test: culture ; organism: Adenovirus ; strain: TYPE 3 ; cell line: Human embryonic lung cells ; method: cytopathic effect ; measure: inhibition ; dose: 50 µg/mL ; result: 0%
Cc1ccc(N2CCN(c3cncc(-c4ccc(C(F)(F)F)cc4)n3)CC2)cc1 ; test: target ; organism: Cytomegalovirus ; target: UL97 kinase ; measure: IC50 ; result: <10 µM